Values of other authors in patent US20020018777A1, “STERILIZATION OF VIRUS INFECTED PLASMA” (priority 1995, published 2002).

Tested on: hepatitis B virus
Details: treatment with TNBP

SMILES: CCCCOP(=O)(OCCCC)OCCCC
- hepatitis B virus inactivated: 10^6 infectious doses (ID50)
